According to US20050170334A1:

Target: M2 peptide (extracellular 23-amino-acid M2 peptide) (influenza A virus)
Experiment: ELISA, peptide coated, antibody 10 µg/ml

B1: N547 (antibody, V domains shown)
VH: EVQLVESGGGLVKPGGSLRLSCAASGFTFSNALMSWVRQAPGKGLEWVGRIKSKTNGGTTDYAAPVKGRFTISRDDSKNTLYLQMNSLKTEDTAVYYCTTHLRYFDWLSDYWGQGTLVTVSS
VL: QSVLTQPPSMSAAPGQKVTISCSGSSSNIGNNYISWYQQLPGTAPKVLIYDNNKRPSGIPDRFSGSKSGTSATLGITGLQTGDEADYYCGSWDSSLSAGVFGTGTKVTVLG
- ELISA (OD450): 0.51 OD450
